Source: PubChem BioAssay AID1224833 (University of Georgia, 2016)

Aim: 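Host factors restraining rotavirus as candidate antiviral genes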 (primary screen)
System: monkey MA104 kidney cells
Knock-down reagent: siRNA pool against human genes, 50 nM
Time to read-out: 48 h knock-down before infection; read 24 h after infection
Challenge: infection with rotavirus strain RV3 two days after transfection; infectious dose for this stage not given
Read-out: 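Rotavirus antigen per well by fluorescent immunoassay, normalised to non-targeting control wells on each plate and given as a standard z-score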
Direction: z-score vs non-targeting control: higher = more rotavirus replication than with non-targeting control
Rule for the call: In these data the active calls have z-score vs non-targeting control at about -1 or lower, or at about 1 or higher
Meaning of the calls: active = z-score beyond 1 either way; inactive = z-score within 1 of zero
The deposit covers about 12,000 reagents; this is an unselected part. About 5,600 of them (46%) were called active. 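Active calls cover z-scores past 1 in both directions, so they include lowered as well as raised rotavirus replication.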 A number with no mark means an inactive call. Reagent sequences are not shown.

target gene | z-score vs non-targeting control
ANKRD36 (ankyrin repeat domain 36) | 0.268
CISD1 (CDGSH iron sulfur domain 1) | 0.74
RFX4 (regulatory factor X4) | 0.882
SLC4A10 | -1.99 (active)
STAMBP (STAM binding protein) | -2.32 (active)
ETV6 (ETS variant transcription factor 6) | -1.98 (active)
NPAS3 (neuronal PAS domain protein 3) | -1.95 (active)
CLVS1 (clavesin 1) | -1.81 (active)
ZMYM1 (zinc finger MYM-type containing 1) | -0.53
GMNN (geminin DNA replication inhibitor) | -0.644
UQCR10 (ubiquinol-cytochrome c reductase, complex III subunit X) | -0.483
ZBTB24 (zinc finger and BTB domain containing 24) | -1.13 (active)
OSER1 (oxidative stress responsive serine rich 1) | -0.0395
SLC6A4 | 0.614
KEL (Kell metallo-endopeptidase (Kell blood group)) | 0.669
TKT (transketolase) | -1.23 (active)
SS18L1 (SS18L1 subunit of BAF chromatin remodeling complex) | -0.784
MYL4 (myosin light chain 4) | -1.75 (active)
CFAP68 (cilia and flagella associated protein 68) | -0.534
RAE1 (ribonucleic acid export 1) | -0.773
RGS9 (regulator of G protein signaling 9) | -0.571
RTN4 (reticulon 4) | 0.0655
GTPBP4 (GTP binding protein 4) | 0.925
P3H4 (prolyl 3-hydroxylase family member 4 (inactive)) | -2.21 (active)
PLEKHG4 (pleckstrin homology and RhoGEF domain containing G4) | 1.71 (active)
BRD9 (bromodomain containing 9) | -1.45 (active)
TCIRG1 | -2.25 (active)
DPH3 (diphthamide biosynthesis 3) | -0.761
RAB8A (RAB8A, member RAS oncogene family) | -1.97 (active)
MALL (mal, T cell differentiation protein like) | -1.06 (active)
PTS (6-pyruvoyltetrahydropterin synthase) | -2.01 (active)
PRSS1 (serine protease 1) | 1.45 (active)
RPP30 (ribonuclease P/MRP subunit p30) | 0.0365
CHMP1B (charged multivesicular body protein 1B) | 0.52
SRP68 (signal recognition particle 68) | -0.249
COL17A1 (collagen type XVII alpha 1 chain) | -1.11 (active)
IRF2BP2 (interferon regulatory factor 2 binding protein 2) | 1.92 (active)
AZGP1 (alpha-2-glycoprotein 1, zinc-binding) | 1.86 (active)
PKD1L1-AS1 (PKD1L1 antisense RNA 1) | 1.24 (active)
PKIG (cAMP-dependent protein kinase inhibitor gamma) | -1.02 (active)
CYP1A2 (cytochrome P450 family 1 subfamily A member 2) | 1.52 (active)
SLC20A2 | 1.33 (active)
UTP25 (UTP25 small subunit processome component) | -1.21 (active)
KIF2C (kinesin family member 2C) | -0.899
CPLANE2 (ciliogenesis and planar polarity effector complex subunit 2) | -1.25 (active)

A portion of the results above, for reference:
target gene | z-score vs non-targeting control
RTN4 (reticulon 4) | 0.0655
GTPBP4 (GTP binding protein 4) | 0.925
P3H4 (prolyl 3-hydroxylase family member 4 (inactive)) | -2.21 (active)
